Results of unrelated studies side by side (data: NIAID ChemDB).

All rows: tests in culture; species: Aspergillus clavatus

Conditions beyond the fields shown may differ between rows.

| structure | strain | read-out | tested at | method | value |
|---|---|---|---|---|---|
| CC(=O)Nc1ccc(OCC(=O)N2N=C(c3nc4ccccc4[nH]3)CC2c2ccccc2Cl)cc1 | MTCC 1323 | MIC100 |  |  | 25 µg/mL |
| N#Cc1ccc(Nc2nc(Oc3cccc4cccnc34)nc(N3CCN(c4ccccn4)CC3)n2)cc1C(F)(F)F | MTCC 1323 | zone | 100 µg/disc | agar diffusion / agar | 22 mm |
| Cc1ccc(N2NOC(=O)C2S(=O)(=O)Nc2ccc(-n3c(-c4ccccc4[N+](=O)[O-])nc4ccccc4c3=O)cc2)cc1 | MTCC323 | zone | 250 µg/mL | agar diffusion | 20 mm |
| Cc1ccc2nc(Cl)c(C3SC(=Cc4cccc([N+](=O)[O-])c4)C(=O)N3n3c(-c4ccc(Cl)cc4)nc4ccccc4c3=O)cc2c1 |  | MIC99 |  | broth dilution / visual reading | 100 µg/mL |
| Cc1ccc(-c2nc3ccccc3c(=O)n2-c2ccc(C(=O)NN3C(=O)/C(=C/c4c(Cl)cccc4Cl)SC3c3ccc(F)cc3)cc2)cc1 | MTCC 1323 | MIC100 |  |  | 500 µg/mL |
| Cc1nn(-c2ccccc2)c2c1C(c1cccc(Cl)c1)c1c(nc(=O)[nH]c1N)O2 | MTCC 1323 | MIC |  |  | 1000 µg/mL |
| Cc1nc(NC(=O)c2ccc(F)cc2)sc1C(=O)N/N=C1/S/C(=C/c2cccc(O)c2)C(=O)N1c1ccccc1 | MTCC 1323 | MIC50 |  |  | 250 µg/mL |
| Cc1ccc(-c2nc3ccccc3c(=O)n2-c2ccc(C(=O)NN3C(=O)/C(=C/c4ccc(O)cc4)SC3c3ccc(F)cc3)cc2)cc1 | MTCC 1323 | MIC100 |  |  | 250 µg/mL |
| O=C(CSc1nnc(-c2ccc3ncccc3c2)o1)Nc1nc2ccc([N+](=O)[O-])cc2s1 |  | MIC |  | agar | 25 µg/mL |
| CC(=O)Nc1ccc(OCC(=O)N2N=C(c3nc4ccccc4[nH]3)CC2c2ccc(Br)cc2)cc1 | MTCC 1323 | MIC100 |  |  | 50 µg/mL |
| N#Cc1ccc(Nc2nc(Oc3cccc4cccnc34)nc(N3CCCCC3)n2)cc1C(F)(F)F | MTCC 1323 | zone | 100 µg/disc | agar diffusion / agar | 21 mm |
| Cc1ccc(-c2nc3ccccc3c(=O)n2-c2ccc(C(=O)NN3C(=O)/C(=C/c4cccc(O)c4)SC3c3ccc(F)cc3)cc2)cc1 | MTCC 1323 | MIC100 |  |  | 500 µg/mL |
| Cc1ccc2nc(Cl)c(C3SC(=Cc4ccccc4[N+](=O)[O-])C(=O)N3n3c(-c4ccc(Cl)cc4)nc4ccccc4c3=O)cc2c1 |  | MIC99 |  | broth dilution / visual reading | 500 µg/mL |
| CCOc1ccc(NC(=O)CSc2nnc(-c3ccc4ncccc4c3)o2)cc1 |  | MIC |  | agar | 100 µg/mL |
| Cc1ccc2nc(Cl)c(C3SC(=Cc4cccc(Cl)c4)C(=O)N3n3c(-c4ccc(Cl)cc4)nc4ccccc4c3=O)cc2c1 |  | MIC99 |  | broth dilution / visual reading | 1000 µg/mL |
| Cc1ccccc1/C=C1/S/C(=N/NC(=O)c2sc(NC(=O)c3ccc(F)cc3)nc2C)N(c2ccccc2)C1=O | MTCC 1323 | MIC50 |  |  | 25 µg/mL |
| Cc1ccc(C=C2SC(c3cc4cc(C)ccc4nc3Cl)N(n3c(-c4ccc(Cl)cc4)nc4ccccc4c3=O)C2=O)cc1 |  | MIC99 |  | broth dilution / visual reading | 1000 µg/mL |
| Cc1nn(-c2ccccc2)c2c1C(c1cccc(Br)c1)c1c(nc(=S)[nH]c1N)O2 | MTCC 1323 | MIC |  |  | 500 µg/mL |
| Cc1ccc(-c2nc3ccccc3c(=O)n2-c2ccc(C(=O)NN3C(=O)/C(=C/c4cccc([N+](=O)[O-])c4)SC3c3ccc(F)cc3)cc2)cc1 | MTCC 1323 | MIC100 |  |  | 500 µg/mL |
| CC(=O)Nc1ccc(OCC(=O)N2N=C(c3nc4ccccc4[nH]3)CC2c2ccccc2O)cc1 | MTCC 1323 | MIC100 |  |  | 250 µg/mL |
| Cc1ccc(N2NOC(=O)C2S(=O)(=O)Nc2ccc(-n3c(-c4cccc(Br)c4)nc4ccccc4c3=O)cc2)cc1 | MTCC323 | zone | 250 µg/mL | agar diffusion | 23 mm |
| N#Cc1ccc(Nc2nc(Oc3cccc4cccnc34)nc(N3CCN(c4ccccc4)CC3)n2)cc1C(F)(F)F | MTCC 1323 | zone | 100 µg/disc | agar diffusion / agar | 20 mm |
| CC(=O)Nc1ccc(OCC(=O)N2N=C(c3nc4ccccc4[nH]3)CC2c2cccc(O)c2)cc1 | MTCC 1323 | MIC100 |  |  | 500 µg/mL |
| O=C(CSc1nnc(-c2ccc3ncccc3c2)o1)Nc1nc2ccc(I)cc2s1 |  | MIC |  | agar | 100 µg/mL |
| Cc1ccc(N2NOC(=O)C2S(=O)(=O)Nc2nc3c([N+](=O)[O-])cccc3s2)cc1 | MTCC323 | zone | 250 µg/mL | agar diffusion | 21 mm |
| CC(=O)Nc1ccc(OCC(=O)N2N=C(c3nc4ccccc4[nH]3)CC2c2ccc(C)cc2)cc1 | MTCC 1323 | MIC100 |  |  | 500 µg/mL |
| Cc1ccc2nc(Cl)c(C3SC(=Cc4ccc([N+](=O)[O-])cc4)C(=O)N3n3c(-c4ccc(Cl)cc4)nc4ccccc4c3=O)cc2c1 |  | MIC99 |  | broth dilution / visual reading | 500 µg/mL |
| O=C(CSc1nnc(-c2ccc3ncccc3c2)o1)Nc1ccc(I)cc1 |  | MIC |  | agar | 100 µg/mL |
| CCCCOc1ccc(-c2csc(NS(=O)(=O)C3C(=O)ONN3c3ccc(C)cc3)n2)cc1 | MTCC323 | zone | 250 µg/mL | agar diffusion | 23 mm |
| Cc1nc(NC(=O)c2ccc(F)cc2)sc1C(=O)N/N=C1/S/C(=C/c2ccc(F)cc2)C(=O)N1c1ccccc1 | MTCC 1323 | MIC50 |  |  | 1000 µg/mL |
| CC(=O)Nc1ccc(OCC(=O)N2N=C(c3nc4ccccc4[nH]3)CC2c2ccccc2F)cc1 | MTCC 1323 | MIC100 |  |  | 12.5 µg/mL |
| COc1ccccc1/C=C1/S/C(=N/NC(=O)c2sc(NC(=O)c3ccc(F)cc3)nc2C)N(c2ccccc2)C1=O | MTCC 1323 | MIC50 |  |  | 50 µg/mL |
| CCOc1ccc2nc(NS(=O)(=O)C3C(=O)ONN3c3ccc(C)cc3)sc2c1 | MTCC323 | zone | 250 µg/mL | agar diffusion | 23 mm |
| CC(=O)Nc1ccc(OCC(=O)N2N=C(c3nc4ccccc4[nH]3)CC2c2cccc(Br)c2)cc1 | MTCC 1323 | MIC100 |  |  | 250 µg/mL |
| Cc1ccc(N2NOC(=O)C2S(=O)(=O)Nc2nc3ccc([N+](=O)[O-])cc3s2)cc1 | MTCC323 | zone | 250 µg/mL | agar diffusion | 24 mm |
| Cc1ccc(-c2nc3ccccc3c(=O)n2-c2ccc(C(=O)NN3C(=O)/C(=C/c4cccc(Cl)c4)SC3c3ccc(F)cc3)cc2)cc1 | MTCC 1323 | MIC100 |  |  | 1000 µg/mL |
| Cc1nn(-c2ccccc2)c2c1C(c1ccc(Cl)cc1)c1c(nc(=S)[nH]c1N)O2 | MTCC 1323 | MIC |  |  | >1000 µg/mL |
| Cc1ccc2nc(Cl)c(C3SC(=Cc4ccc(O)cc4)C(=O)N3n3c(-c4ccc(Cl)cc4)nc4ccccc4c3=O)cc2c1 |  | MIC99 |  | broth dilution / visual reading | 500 µg/mL |
| Cc1ccc(-c2nc3ccccc3c(=O)n2-c2ccc(CONN)cc2)cc1 | MTCC 1323 | MIC100 |  |  | 1000 µg/mL |
| COc1ccc2nc(NC(=O)CSc3nnc(-c4ccc5ncccc5c4)o3)sc2c1 |  | MIC |  | agar | 100 µg/mL |
| Cc1ccc(/C=C2/S/C(=N/NC(=O)c3sc(NC(=O)c4ccc(F)cc4)nc3C)N(c3ccccc3)C2=O)cc1 | MTCC 1323 | MIC50 |  |  | 50 µg/mL |
| Cc1nn(-c2ccccc2)c2c1C(c1cccc([N+](=O)[O-])c1)c1c(nc(=O)[nH]c1N)O2 | MTCC 1323 | MIC |  |  | 500 µg/mL |
| CC(=O)Nc1ccc(NC(=O)CSc2nnc(-c3ccc4ncccc4c3)o2)cc1 |  | MIC |  | agar | 50 µg/mL |

The first 5 rows once more:

structure | strain | read-out | tested at | method | value
CC(=O)Nc1ccc(OCC(=O)N2N=C(c3nc4ccccc4[nH]3)CC2c2ccccc2Cl)cc1 | MTCC 1323 | MIC100 |  |  | 25 µg/mL
N#Cc1ccc(Nc2nc(Oc3cccc4cccnc34)nc(N3CCN(c4ccccn4)CC3)n2)cc1C(F)(F)F | MTCC 1323 | zone | 100 µg/disc | agar diffusion / agar | 22 mm
Cc1ccc(N2NOC(=O)C2S(=O)(=O)Nc2ccc(-n3c(-c4ccccc4[N+](=O)[O-])nc4ccccc4c3=O)cc2)cc1 | MTCC323 | zone | 250 µg/mL | agar diffusion | 20 mm
Cc1ccc2nc(Cl)c(C3SC(=Cc4cccc([N+](=O)[O-])c4)C(=O)N3n3c(-c4ccc(Cl)cc4)nc4ccccc4c3=O)cc2c1 |  | MIC99 |  | broth dilution / visual reading | 100 µg/mL
Cc1ccc(-c2nc3ccccc3c(=O)n2-c2ccc(C(=O)NN3C(=O)/C(=C/c4c(Cl)cccc4Cl)SC3c3ccc(F)cc3)cc2)cc1 | MTCC 1323 | MIC100 |  |  | 500 µg/mL

MIC50, MIC90 and the like: level of inhibition, or share of isolates inhibited. Blank or dashed fields: not listed here. Zone: diameter of growth inhibition.